Legend:
[1] = 298.15 K; 101.33 kPa; Liquid
[2] = an = ratio of the nth substance listed; conditions: 101 kPa, Liquid; for mass density: Pycnometric method

CCCCOP(=O)(OCCCC)OCCCC [tributyl phosphate]
Conditions | viscosity [mPa·s]
[1] | 3.45

CCCCOP(=O)(OCCCC)OCCCC [tributyl phosphate] + CC(=O)CC(C)C
[2]
Conditions | kinematic viscosity, 283.1 K [m2/s] | kinematic viscosity, 293.15 K [m2/s] | kinematic viscosity, 303.15 K [m2/s] | kinematic viscosity, 313.15 K [m2/s] | kinematic viscosity, 323.15 K [m2/s] | mass density, 283.1 K [kg/m3] | mass density, 293.15 K [kg/m3] | mass density, 303.15 K [kg/m3] | mass density, 313.15 K [kg/m3] | mass density, 323.15 K [kg/m3]
a1 = 1.5 | 2.15e-06 | 1.78e-06 | 1.47e-06 | 1.23e-06 | 1.1e-06 | 915 | 908.9 | 903.4 | 898.5 | 894.2
a1 = 2.3 | 2.56e-06 | 2.1e-06 | 1.72e-06 | 1.41e-06 | 1.24e-06 | 926 | 921.8 | 916.8 | 911 | 904.4
a1 = 4 | 3.12e-06 | 2.55e-06 | 2.07e-06 | 1.68e-06 | 1.45e-06 | 948.5 | 941.8 | 935.3 | 929 | 922.9

From the NIST ThermoML archive (doi:10.1021/je700746a)
